From patent US10316099 come the findings set out here.

Experiment [1] has as its target huPrP23-231 (human prion protein, residues 23 to 231) (human).
The target is the same in experiment [2]. The source holds these as a separate data set.
Experiment [3] shares this target. The source holds these as a separate data set.

For ICSM-35, the EC50 (read off the curve) in experiment [1] is 0.006 µM. In experiment [2], this substance registered a Kd of 0.01 µM and a Ki of 0.02 µM. The IC50 in experiment [3] worked out at 10.4 µM.

In general, EC50 (read off the curve) refers to the concentration giving half of the maximal effect. Low values mean a more potent agent, high ones a less potent agent. A word on the Kd: it is the free concentration of one partner at which half of the binding sites on the other are occupied at equilibrium, for simple one-to-one binding. One may read the Ki as a dissociation constant, usually derived from enzyme kinetics or from competition with a known ligand. As a reminder, the IC50 is the concentration at which inhibition is half-maximal. A low value points to greater potency in that assay.
